This passage reports activity change, negative = inhibition results from PubChem BioAssay AID977624 (Broad Institute, 2014).

This is a selection; strong and weak results do not stand in their true shares. Inconclusive results are not listed. The source made the active and inactive calls.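 Rule for the calls: active = compound lowering the normal-ribosome reporter at least twice as much as the humanized-ribosome reporter, growth loss under a set limit; inconclusive = no clear call, values can overlap the other calls; inactive = the rest.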

The experiment is described as follows: growth inhibition of wild-type GFP E. coli, dose response, h34 mutant RFP, cherry-pick (AID 977624). The note with it: E. coli wild-type GFP strain growth, fluorescence, 24 h; at 50 µM (top of the series).
`O=[N+]([O-])c1cc([N+](=O)[O-])c(Nc2ccccn2)c([N+](=O)[O-])c1`: the activity change, negative = inhibition is inactive: 12.4.

On to `O=[N+]([O-])c1cc([N+](=O)[O-])c(Nc2nnnn2CCO)c([N+](=O)[O-])c1`, for which the activity change, negative = inhibition is inactive: 15.7.
